PubChem BioAssay AID1224833 | University of Georgia – 2016

Test: 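Host factors restraining rotavirus as candidate antiviral genes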 (primary screen)
System: monkey MA104 kidney cells
Reagent: siRNA pool against human genes, 50 nM
Timing: 48 h knock-down before infection; read 24 h after infection
Conditions: infection with rotavirus strain RV3 two days after transfection; infectious dose for this stage not given
Measured: 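z-score of rotavirus antigen signal per well, from a fluorescent immunoassay, relative to non-targeting control wells on the same plate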
Direction: z-score vs non-targeting control: higher = more rotavirus replication than with non-targeting control
Hit rule: In these data the active calls have z-score vs non-targeting control at about -1 or lower, or at about 1 or higher
Calls: active = z-score beyond 1 either way; inactive = z-score within 1 of zero
Shown is a random part of about 12,000 deposited reagents. Of all reagents, about 5,600 (46%) are marked active. 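Active calls cover z-scores past 1 in both directions, so they include lowered as well as raised rotavirus replication.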

| Gene | z-score vs non-targeting control | activity call |
| --- | --- | --- |
| CENPP (centromere protein P) | -0.922 | inactive |
| FAM217B (family with sequence similarity 217 member B) | -0.741 | inactive |
| YIF1A | 0.3 | inactive |
| CREBBP (CREB binding lysine acetyltransferase) | 1.83 | active |
| FGD4 (FYVE, RhoGEF and PH domain containing 4) | 0.432 | inactive |
| TMEM179 (transmembrane protein 179) | 2.45 | active |
| ZNF670 (zinc finger protein 670) | 1.24 | active |
| C17orf75 (chromosome 17 open reading frame 75) | -1.48 | active |
| NEMF (nuclear export mediator factor) | 2.15 | active |
| ZNF526 (zinc finger protein 526) | -0.783 | inactive |
| STRN (striatin) | 1.16 | active |
| GGACT (gamma-glutamylamine cyclotransferase) | -1.78 | active |
| PSD4 (pleckstrin and Sec7 domain containing 4) | -1.35 | active |
| DERL2 (derlin 2) | 0.916 | inactive |
| FYTTD1 (forty-two-three domain containing 1) | -0.563 | inactive |
| ARRB1 (arrestin beta 1) | -1.85 | active |
| GPR15 (G protein-coupled receptor 15) | 1.98 | active |
| EEF1A2 (eukaryotic translation elongation factor 1 alpha 2) | -1.39 | active |
| PRH2 (proline rich protein HaeIII subfamily 2) | 0.165 | inactive |
| SYNGR4 (synaptogyrin 4) | -0.724 | inactive |
| ELAVL4 (ELAV like RNA binding protein 4) | -3.32 | active |
| YIPF4 (Yip1 domain family member 4) | -1.08 | active |
| SLC4A3 | 1.59 | active |
| SHISA6 (shisa family member 6) | -0.864 | inactive |
| FSTL4 (follistatin like 4) | 0.628 | inactive |
| RAD21 (RAD21 cohesin complex component) | -2.26 | active |
| NDUFA5 (NADH:ubiquinone oxidoreductase subunit A5) | 1.05 | active |
| CLSTN1 (calsyntenin 1) | 0.363 | inactive |
| LINC02872 (long independently transcribed non-coding RNA 2872) | -1.1 | active |
| GNG11 (G protein subunit gamma 11) | -0.0944 | inactive |
| H3C2 (H3 clustered histone 2) | 1.06 | active |
| MIEF2 (mitochondrial elongation factor 2) | -0.832 | inactive |
| OPLAH (5-oxoprolinase, ATP-hydrolysing) | -1.31 | active |
| ARL1 (ARF like GTPase 1) | -1.06 | active |
| CLTRN (collectrin, amino acid transport regulator) | -0.219 | inactive |
| AADACL4 (arylacetamide deacetylase like 4) | -1.09 | active |
| VENTX (VENT homeobox) | -1.77 | active |
| ZNF25 (zinc finger protein 25) | -1.31 | active |
| CXCR1 (C-X-C motif chemokine receptor 1) | -0.789 | inactive |
| TM4SF4 (transmembrane 4 L six family member 4) | -1.81 | active |
| ZNF23 (zinc finger protein 23) | 0.794 | inactive |
| IFNLR1 (interferon lambda receptor 1) | 0.95 | inactive |
| SUMF1 (sulfatase modifying factor 1) | -0.964 | inactive |
| KRT7 (keratin 7) | 0.406 | inactive |
| VSTM4 (V-set and transmembrane domain containing 4) | 1.1 | active |
| HAX1 (HCLS1 associated protein X-1) | -1.86 | active |
| LRRC45 (leucine rich repeat containing 45) | 0.792 | inactive |
| TMEM106A (transmembrane protein 106A) | 0.909 | inactive |
| SGTB | -0.442 | inactive |
| RCL1 (RNA terminal phosphate cyclase like 1) | 0.15 | inactive |
| SPATA2 (spermatogenesis associated 2) | -0.262 | inactive |
| NBPF11 (NBPF member 11) | -1.09 | active |
| DUS4L (dihydrouridine synthase 4 like) | -1.44 | active |
| SUPT16H (SPT16 homolog, facilitates chromatin remodeling subunit) | -3.31 | active |
| LRP6 (LDL receptor related protein 6) | 1.13 | active |
| THAP7 (THAP domain containing 7) | -0.816 | inactive |
| CYGB (cytoglobin) | 0.626 | inactive |
| RRM2 (ribonucleotide reductase regulatory subunit M2) | 1.8 | active |
| DYNC2I2 (dynein 2 intermediate chain 2) | 1.28 | active |
| HBP1 (HMG-box transcription factor 1) | 1.15 | active |
| DEFB104B (defensin beta 104B) | 0.26 | inactive |
| PLAAT4 (phospholipase A and acyltransferase 4) | 1.09 | active |
| ZNF232 (zinc finger protein 232) | 1.33 | active |
| CSTL1 (cystatin like 1) | -0.0942 | inactive |
| ZC4H2 (zinc finger C4H2-type containing) | -0.512 | inactive |
| XKR4 (XK related 4) | 1.84 | active |
| NARF (nuclear prelamin A recognition factor) | -1.12 | active |
| KLHL21 (kelch like family member 21) | -0.786 | inactive |
| SLC39A3 | -0.737 | inactive |
| C12orf57 (chromosome 12 open reading frame 57) | -0.987 | inactive |
| KIF13B (kinesin family member 13B) | -1.01 | active |
| CST8 (cystatin 8) | -0.334 | inactive |
| NPVF (neuropeptide VF precursor) | -1.36 | active |
| POFUT4 (protein O-fucosyltransferase 4) | -0.276 | inactive |
| AKR1C4 (aldo-keto reductase family 1 member C4) | -2.18 | active |

Not a retest: an excerpt of the list.
| Gene | z-score vs non-targeting control | activity call |
| --- | --- | --- |
| PSD4 (pleckstrin and Sec7 domain containing 4) | -1.35 | active |
| DERL2 (derlin 2) | 0.916 | inactive |
| FYTTD1 (forty-two-three domain containing 1) | -0.563 | inactive |
| ARRB1 (arrestin beta 1) | -1.85 | active |
| GPR15 (G protein-coupled receptor 15) | 1.98 | active |
| EEF1A2 (eukaryotic translation elongation factor 1 alpha 2) | -1.39 | active |
